Measured values taken from ChEMBL document CHEMBL1268892, “Antidotes to anthrax lethal factor intoxication. Part 1: Discovery of potent lethal factor inhibitors with in vivo efficacy” (Bioorg Med Chem Lett, 2010).
Calls of active or inactive are those of the source. The calls are words filed in the database; no cut-off is given here.

Test system: not listed separately
Assay: Selectivity for Bacillus anthracis lethal factor over MMP12

Compound | fold change (FC)
Cc1cc(N[C@H](CCCCNCCc2ccc(F)cc2)C(=O)NO)cc(C)c1F | > 500
Cc1cc(C(=O)NCCCC[C@@H](Nc2cc(C)c(F)c(C)c2)C(=O)NO)ccc1F | > 500
Cc1cc(N[C@H](CCCCNCc2ccc(F)cc2)C(=O)NO)cc(C)c1F | > 500
CO[C@H](C[C@H](CCN(C)CCCc1ccc(F)c(C)c1)C(=O)NO)c1ccc(F)cc1 | > 500
CO[C@H](C[C@H](CCN1CCCC(CO)C1)C(=O)NO)c1ccc(F)cc1 (some centres undefined) | > 500
Cc1cc(S(=O)(=O)NCCCC[C@@H](Nc2cc(C)c(F)c(C)c2)C(=O)NO)ccc1F | > 500
Cc1cc(CNCCCC[C@@H](Nc2cc(C)c(F)c(C)c2)C(=O)NO)ccc1F | > 500

Test system: not listed separately
Assay: Selectivity for Bacillus anthracis lethal factor over MMP9

Compound | fold change (FC)
Cc1cc(N[C@H](CCCCNCCc2ccc(F)cc2)C(=O)NO)cc(C)c1F | > 500
Cc1cc(C(=O)NCCCC[C@@H](Nc2cc(C)c(F)c(C)c2)C(=O)NO)ccc1F | > 500
Cc1cc(N[C@H](CCCCNCc2ccc(F)cc2)C(=O)NO)cc(C)c1F | > 500
CO[C@H](C[C@H](CCN(C)CCCc1ccc(F)c(C)c1)C(=O)NO)c1ccc(F)cc1 | > 500
CO[C@H](C[C@H](CCN1CCCC(CO)C1)C(=O)NO)c1ccc(F)cc1 (some centres undefined) | > 500
Cc1cc(S(=O)(=O)NCCCC[C@@H](Nc2cc(C)c(F)c(C)c2)C(=O)NO)ccc1F | > 500
Cc1cc(CNCCCC[C@@H](Nc2cc(C)c(F)c(C)c2)C(=O)NO)ccc1F | > 500

Test system: not listed separately
Assay: Selectivity for Bacillus anthracis lethal factor over MMP14

Compound | fold change (FC)
Cc1cc(N[C@H](CCCCNCCc2ccc(F)cc2)C(=O)NO)cc(C)c1F | > 500
Cc1cc(C(=O)NCCCC[C@@H](Nc2cc(C)c(F)c(C)c2)C(=O)NO)ccc1F | > 500
Cc1cc(N[C@H](CCCCNCc2ccc(F)cc2)C(=O)NO)cc(C)c1F | > 500
CO[C@H](C[C@H](CCN(C)CCCc1ccc(F)c(C)c1)C(=O)NO)c1ccc(F)cc1 | > 500
CO[C@H](C[C@H](CCN1CCCC(CO)C1)C(=O)NO)c1ccc(F)cc1 (some centres undefined) | > 500
Cc1cc(S(=O)(=O)NCCCC[C@@H](Nc2cc(C)c(F)c(C)c2)C(=O)NO)ccc1F | > 500
Cc1cc(CNCCCC[C@@H](Nc2cc(C)c(F)c(C)c2)C(=O)NO)ccc1F | > 500

Test system: not listed separately
Assay: Selectivity for Bacillus anthracis lethal factor over MMP1

Compound | fold change (FC)
Cc1cc(N[C@H](CCCCNCCc2ccc(F)cc2)C(=O)NO)cc(C)c1F | > 500
Cc1cc(C(=O)NCCCC[C@@H](Nc2cc(C)c(F)c(C)c2)C(=O)NO)ccc1F | > 500
Cc1cc(N[C@H](CCCCNCc2ccc(F)cc2)C(=O)NO)cc(C)c1F | > 500
CO[C@H](C[C@H](CCN(C)CCCc1ccc(F)c(C)c1)C(=O)NO)c1ccc(F)cc1 | > 500
CO[C@H](C[C@H](CCN1CCCC(CO)C1)C(=O)NO)c1ccc(F)cc1 (some centres undefined) | > 500
Cc1cc(S(=O)(=O)NCCCC[C@@H](Nc2cc(C)c(F)c(C)c2)C(=O)NO)ccc1F | > 500
Cc1cc(CNCCCC[C@@H](Nc2cc(C)c(F)c(C)c2)C(=O)NO)ccc1F | > 500

Test system: Rattus norvegicus
Assay: Inhibition of lethal factor-induced toxicity in Fischer 344 rat assessed as increase in median survival time at 10 mg/kg, iv relative to control

Compound | inhibition
Cc1cc(C(=O)NCCCC[C@@H](Nc2cc(C)c(F)c(C)c2)C(=O)NO)ccc1F | inactive
CO[C@H](C[C@H](CCN(C)CCCc1ccc(F)c(C)c1)C(=O)NO)c1ccc(F)cc1 | Active
CO[C@H](C[C@H](CCN1CCCC(CO)C1)C(=O)NO)c1ccc(F)cc1 (some centres undefined) | Active
Cc1cc(S(=O)(=O)NCCCC[C@@H](Nc2cc(C)c(F)c(C)c2)C(=O)NO)ccc1F | Active

Test system: not listed separately
Assay: Selectivity for Bacillus anthracis lethal factor over MMP3

Compound | fold change (FC)
Cc1cc(N[C@H](CCCCNCCc2ccc(F)cc2)C(=O)NO)cc(C)c1F | > 500
Cc1cc(C(=O)NCCCC[C@@H](Nc2cc(C)c(F)c(C)c2)C(=O)NO)ccc1F | > 500
Cc1cc(N[C@H](CCCCNCc2ccc(F)cc2)C(=O)NO)cc(C)c1F | > 500
CO[C@H](C[C@H](CCN(C)CCCc1ccc(F)c(C)c1)C(=O)NO)c1ccc(F)cc1 | > 500
CO[C@H](C[C@H](CCN1CCCC(CO)C1)C(=O)NO)c1ccc(F)cc1 (some centres undefined) | > 500
Cc1cc(S(=O)(=O)NCCCC[C@@H](Nc2cc(C)c(F)c(C)c2)C(=O)NO)ccc1F | > 500
Cc1cc(CNCCCC[C@@H](Nc2cc(C)c(F)c(C)c2)C(=O)NO)ccc1F | > 500
